Patent US5807688A (priority 1995, dated 1998)

Legend:
[1] = test system: JAR human choriocarcinoma cell line; settings: cited from earlier work
[2] = test system: colorectal tumour cells (LoVo); settings: in vitro cytoxicity; cited from earlier work
LoVo cells = assay: Sulforhodamine B (SRB) cytotoxicity assay; settings: 2 μM, 1 h incubation

| SMILES | IC50 [1] [nM] | IC50 [2] [nM] | LoVo cells knocked out (LoVo cells) |
| --- | --- | --- | --- |
| O=C(O)c1ccc(N(CCCl)CCCl)cc1 | > 700000 |  |  |
| Oc1ccc(N(CCCl)CCCl)cc1 |  | 1000 | ca. 50% |
